The series concerns RED-tris-NTA/His6-peptide interaction. As to the kind of experiment: Buffer additive screen: His6-peptide titrated against RED-tris-NTA with additives in PBST. In kind it is binding. Particulars: for Maximum allowed assay concentration: highest additive concentration that did not alter the Kd of His6-peptide/RED-tris-NTA, PBST; for Maximum allowed assay concentration (in words): tested at 100 nM, ions compete for binding with tris-NTA fluorophores.

With `O[C@@H](CS)[C@@H](O)CS` (racemic) [DTT, dithiothreitol], the “Maximum allowed assay concentration” value was determined as 5 mM.

`Nc1ncnc2c1ncn2[C@@H]1O[C@H](COP(=O)(O)OP(=O)(O)O)[C@@H](O)[C@H]1O` [ADP]: the “Maximum allowed assay concentration” value is 5 mM.

Consider `Nc1ncnc2c1ncn2[C@@H]1O[C@H](COP(=O)(O)O)[C@@H](O)[C@H]1O` [AMP], for which the “Maximum allowed assay concentration” value came out at 5 mM.

`Nc1ncnc2c1ncn2[C@@H]1O[C@H](COP(=O)(O)OP(=O)(O)OP(=O)(O)O)[C@@H](O)[C@H]1O` [ATP]: the “Maximum allowed assay concentration” value worked out at 5 mM.

Consider `[Cu+2]` [Cu(II)], for which the “Maximum allowed assay concentration (in words)” value is “preloaded protein only”.

As to `O=C(O)CN(CCN(CC(=O)O)CC(=O)O)CC(=O)O` [EDTA, ethylenediaminetetraacetic acid], the “Maximum allowed assay concentration” value is given as 0.5 mM.

Take `O=C(O)CN(CCOCCOCCN(CC(=O)O)CC(=O)O)CC(=O)O` [EGTA, ethylenglycol-bis(aminoethylether)]: the “Maximum allowed assay concentration” value is given as 0.5 mM.

`Nc1nc2c(ncn2[C@@H]2O[C@H](COP(=O)(O)OP(=O)(O)O)[C@@H](O)[C@H]2O)c(=O)[nH]1` [GDP]: the “Maximum allowed assay concentration” value amounted to 1 mM.

On to `Nc1nc2c(ncn2[C@@H]2O[C@H](COP(=O)(O)OP(=O)(O)OP(=O)(O)O)[C@@H](O)[C@H]2O)c(=O)[nH]1` [GTP], for which the “Maximum allowed assay concentration” value worked out at 1 mM.

As for `N[C@@H](Cc1c[nH]cn1)C(=O)O` [Histidine], the “Maximum allowed assay concentration” value came to 1 mM.

`c1c[nH]cn1` [Imidazole]: the “Maximum allowed assay concentration” value is given as 1 mM.

On to `[Mg+2]` [Mg(II)], for which the “Maximum allowed assay concentration” value turned out to be 5 mM.

For `[Zn+2]` [Zn(II)], the “Maximum allowed assay concentration (in words)” value is listed as “preloaded protein only”.

In the case of `OCCS` [ß-mercapto-ethanol], the “Maximum allowed assay concentration” value turned out to be 1 mM.

Source of the values: paper PMC5862892, “Near-native, site-specific and purification-free protein labeling for quantitative protein interaction analysis by MicroScale Thermophoresis” (Scientific Reports, 2018).
